# Primary screen of a compound library

The values are deposited in ChEMBL (CHEMBL3988442, “University of Dundee, Small-Polar-MMV Screening Library” (2021)).

Values are the deposited “Percent Effect”, in %. How 0% and 100% were set is not recorded. Most values in the screen are low, and negative values occur. The entries come from a sample that favours strong results. A dash means the value is not listed here; it may have been measured.

Mtb cholesterol medium: 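Phenotypic screen: M. tuberculosis growth, cholesterol and DPPC medium, 4 days; the read-out is not stated. Tested at 500 µM. The record gives no direction; compounds that gave an IC50 in retests scored well above the rest, so higher reads as more growth inhibition. Size under these conditions: about 18,000 compounds, about 900 of them at 50% or above in at least one test.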
Mtb glucose medium: 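Whole-cell growth test on Mycobacterium tuberculosis, read after 3 days in glucose-containing 7H9 medium; the read-out is not stated. Compounds at 500 µM. Direction is inferred from retests: higher values go with more growth inhibition. Of about 18,000 compounds tested this way, about 1,400 (7.9%) reached 50% or more in at least one test.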

Compound	Mtb cholesterol medium	Mtb glucose medium
COCCNC(C)COC (stereo not shown)	-	2.304
Cc1ccc(S(N)(=O)=O)cc1N(C)C	-	-4.065
Nc1nc(SCCO)n[nH]1	3.553	7.469
CN(C)C(CN)C1CCCCC1 (stereo not shown)	-	67.06
COc1cccc2c1CCC2N (stereo not shown)	-	57.51
Nc1ncccc1C(=O)NCCC1=CCCCC1	62.4	72.05
CCCC(=O)NC1CCCNC1 (stereo not shown)	-	-0.226
COCC(C)NC(=O)N(C)Cc1c(C)noc1C (stereo not shown)	3.785	-
Nc1cn(-c2ccccc2C(F)(F)F)nn1	18.16	-
Nc1cnn(Cc2ccccn2)c1	51.7	50.97
NCCS(=O)(=O)Cc1ccccc1	-	6.627
Cc1ccc(C(=O)N(CC2CCOC2)C2CC2)c(=O)[nH]1 (stereo not shown)	-	3.121
CCCN(CCC(=O)N(C)C)Cc1nccn1C	-19.25	-
CC(C(=O)N(C)Cc1ccncc1)n1cncn1 (stereo not shown)	-	5.969
CCOC1CCN(C(=O)C(O)c2ccc(F)cc2)CC1 (stereo not shown)	-	16.92
Cc1cnn(CCNCc2cccc(C(N)=O)c2)c1	-	25.67
CN(C)C(=O)CSCC(=O)NCc1ccc(Cl)cc1	-	64.1
Nc1nnc(SCCN2CCCCC2)[nH]1	-	8.215
O=S1(=O)N=C(NCc2ccco2)c2ccccc21	4.978	-
CCCNC(=O)CNC(=O)Cn1nc(C)c(Cl)c1C	-	-3.229
O=C(Nc1nc2c(s1)COCC2)c1cnsn1	-	-6.961
CCc1nc(CN(C)CCC(C)O)no1 (stereo not shown)	-	5.897
COCCN(CC(N)=O)S(=O)(=O)c1cc(F)ccc1C	-	13.94
COC(=O)CNS(=O)(=O)c1ccc(C)cc1	-	27.17
Cc1nonc1CC(=O)N[C@@H]1COCC[C@H]1O	-	3.95
O=C(NCCCNCc1ccccc1)c1ccccn1	-	12.11
NCc1cccc(C(=O)N2CCOCC2)c1	-11.55	-
CN(CCCS(=O)(=O)N(C)C)Cc1nc(C2CC2)no1	-	35.34
Cc1cc(F)ccc1S(=O)(=O)N1CCC(O)CC1	4.895	-
CC(C)C(=O)N1CCCC(c2nccn2CC(N)=O)C1 (stereo not shown)	-	-2.696
NCCc1cccs1	-14.01	-1.023
Cc1csc(C(C)CNC(=O)c2cc(CO)ccn2)n1 (stereo not shown)	-	37.81
Cc1c(Cl)cccc1C(=O)N(C)[C@H](C)C(N)=O	8.419	-
CN1CCN(C(=O)NCc2ccccc2)CC1	-	4.649
NS(=O)(=O)C1CCCOC1 (stereo not shown)	-	-8.893
CCN1CCCC1CNC(=O)c1ccc(C#N)cc1 (stereo not shown)	5.678	15.16
O=c1oc(-c2ccccc2)nn1CN1CCCCC1	-	1.446
O=S(=O)(CCO)CCc1c(F)cccc1Cl	-	17.05
NCc1cccc(-c2nc(-c3ccncc3)no2)c1	71.74	50.09
CN1CCN(C(=O)Cn2ccc3ccc(Br)cc32)CC1	75.88	-
Cc1ccc(CNCCCOc2ccccn2)o1	44.11	41.35
O=C(c1cnsn1)N1CCCSc2ccc(F)cc21	-1.232	78.03
CN(C)S(=O)(=O)NC1(C)CCc2ccccc2C1 (stereo not shown)	-	-2.419
COC(=O)CCNC(=O)C1CCCO1 (stereo not shown)	7.578	5.497
O=S(=O)(CCO)NCc1ccccc1	-	14.29
CCOc1cccc(NC(=O)c2cnn(CC)c2)n1	-	-5.321
CCN(CC)C(=O)c1cc(N(C)S(C)(=O)=O)ccc1Cl	-	25.1
CS(=O)(=O)NCCC(=O)Nc1cccc2c1CCCC2	-	4.091
COCCOCC(=O)Nc1cc(C)c(Br)cn1	-	20.05
Cc1ccc2cc(C(=O)N[C@@H](C)C(N)=O)ccc2n1	-19.91	-
COCC(C)(C)C(=O)NCc1cc(F)ccc1C	-	13.83
Nc1[nH]nc(C(=O)N2CCCC(c3nnc[nH]3)C2)c1Cl (stereo not shown)	-	4.195
NC1CCN(CC2CC2)C1 (stereo not shown)	-	36.74
Cc1nc(C(=O)NCCN2CCCCC2CO)cs1 (stereo not shown)	-6.904	-
O=C(CN1CCC=C(F)C1)Nc1cccc(F)c1	53.18	64.08
N#Cc1cccnc1N1CCOC(c2nccs2)C1 (stereo not shown)	36.53	66.81
O=C(NCc1cn2cc(Br)ccc2n1)C1CC1	-	-5.358
CNC(=O)Cc1csc(NC(=O)c2cccs2)n1	-	25.96
CCNC(=O)c1cc(N2CCC(O)CC2)ccn1	14.16	14.96
CNCC(O)c1cccc(Br)c1 (stereo not shown)	0.4203	-
CCCC(C(=O)OCC)n1ccc(N)n1 (stereo not shown)	-	12.28
N#Cc1ccc(-n2nccc2N)cc1	-	11.15
O=C1CCC2(CNC(=O)C3CC3)CCCC=C2N1 (stereo not shown)	-	63.07
NC1(c2nc(=O)c3c([nH]2)CCC3)CCCC1	-4.307	-
c1cn(C2CCNC2)nn1 (stereo not shown)	1.959	6.255
COCCN(C)CCCNC(=O)c1cc(C2CC2)[nH]n1	5.846	-
CCCNC(=O)CN1CCN(c2ccccc2O)CC1	-17.55	-

Some entries from above, unchanged:

Compound	Mtb cholesterol medium	Mtb glucose medium
Nc1ncccc1C(=O)NCCC1=CCCCC1	62.4	72.05
c1cn(C2CCNC2)nn1 (stereo not shown)	1.959	6.255
N#Cc1cccnc1N1CCOC(c2nccs2)C1 (stereo not shown)	36.53	66.81
COCCN(C)CCCNC(=O)c1cc(C2CC2)[nH]n1	5.846	-
NCCc1cccs1	-14.01	-1.023
NC1(c2nc(=O)c3c([nH]2)CCC3)CCCC1	-4.307	-
Cc1ccc2cc(C(=O)N[C@@H](C)C(N)=O)ccc2n1	-19.91	-